PubChem BioAssay AID504761, Drosophila RNAi Screening Center | 2011

- Test: 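Fly genes whose silencing reduces dengue virus type 2 infection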 (primary screen)
- Cells: D.Mel-2 cells from Drosophila
- Reagents: long dsRNA against Drosophila genes
- Treatment: infection with dengue virus type 2; dose and infection time not stated
- Measurement: 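Cells stained for dengue envelope protein and imaged; percent of infected cells per well on duplicate plates, ranked by infection, with stained nuclei counted for cell number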
- Reading the numbers: infection score: higher = more virus-infected cells
- Hit rule: 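Low infection ranks in the two replicates (chance level up to 0.065) followed by a retest with a 1.5-fold or larger significant decrease, p below 0.05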
- Meaning of the calls: active = confirmed: knock-down lowers infection; inactive = not picked or not confirmed
In all, the deposit lists about 22,000 reagents; this is an unselected part of those with a known target gene and a result. In the full data, 116 (0.52%) are marked active. 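Calls depend on retest data that are not deposited; infection was ranked per plate without normalising between plates; the unit of the infection score is not given.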 A number with no mark means an inactive call. A plus sign joins genes that one reagent is predicted to hit. Further read-outs or replicates are left out here. The record does not give: the amount of reagent, the time to read-out.

CG10338 [DRSC02039]
- infection score, replicate 1: 1.94

dtn (detonator) [DRSC17939]
- infection score, replicate 1: 3.55

dtn (detonator) [DRSC29824]
- infection score, replicate 1: 10.2

Cyp6a9 (Cytochrome P450 6a9) [DRSC07385]
- infection score, replicate 1: 19

Gos28 (Golgi SNARE, 28 kDa) [DRSC16292]
- infection score, replicate 1: 12.4

Gos28 (Golgi SNARE, 28 kDa) [DRSC22859]
- infection score, replicate 1: 1.79

CG10280 [DRSC12133]
- infection score, replicate 1: 4.23

CG10280 [DRSC25571]
- infection score, replicate 1: 4.51

foxo (forkhead box, sub-group O) [DRSC13017]
- infection score, replicate 1: 1.59

foxo (forkhead box, sub-group O) [DRSC15463]
- infection score, replicate 1: 17.2

Continued, starting with the last 2 of the part before.
foxo (forkhead box, sub-group O) [DRSC13017]
- infection score, replicate 1: 1.59

foxo (forkhead box, sub-group O) [DRSC15463]
- infection score, replicate 1: 17.2

CG2017 [DRSC12293]
- infection score, replicate 1: 0.76

GatC + PolG2 [DRSC03312]
- infection score, replicate 1: 44

CG13375 [DRSC18621]
- infection score, replicate 1: 0.69

ver (verrocchio) [DRSC10125]
- infection score, replicate 1: 0.3

ver (verrocchio) [DRSC28113]
- infection score, replicate 1: 34.8
